According to US7910622B2, “Modulation of bacterial quorum sensing with synthetic ligands” (Wisconsin Alumni Research Foundation, priority 2007, dated 2011):
pIC50: −log10 of the molar value. Several values for one entry are separate records, joined by “and”; a condition that tells them apart may be missing. Identical values can stand only once. The match of structure and compound is tentative.

Amino acid sequences for entries named in this document (tags omitted).
UniProt P33905, whole entry: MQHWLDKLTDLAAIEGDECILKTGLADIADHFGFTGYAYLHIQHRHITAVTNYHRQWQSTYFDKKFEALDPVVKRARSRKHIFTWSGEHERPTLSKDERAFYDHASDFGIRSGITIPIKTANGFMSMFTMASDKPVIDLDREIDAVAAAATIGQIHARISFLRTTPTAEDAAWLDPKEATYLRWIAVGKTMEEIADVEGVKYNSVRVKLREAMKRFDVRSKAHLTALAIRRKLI
UniProt P25084, whole entry: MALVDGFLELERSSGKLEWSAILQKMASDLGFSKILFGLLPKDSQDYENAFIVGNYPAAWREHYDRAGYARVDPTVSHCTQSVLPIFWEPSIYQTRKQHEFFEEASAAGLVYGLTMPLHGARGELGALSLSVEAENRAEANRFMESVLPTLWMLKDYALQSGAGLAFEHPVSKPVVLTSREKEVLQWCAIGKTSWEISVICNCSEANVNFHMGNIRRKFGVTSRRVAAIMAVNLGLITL

Assays:
TraR [1] = molecular target: T1, TraR (Agrobacterium tumefaciens, UniProt P33905)
TraR [2] = molecular target: T1, TraR; details: 10 μM ligand; A. tumefaciens WCF47 (pCF372); normalized to OOHL
LasR [3] = molecular target: T2, LasR (Pseudomonas aeruginosa, UniProt P25084); details: 5 μM synthetic ligand against 7.5 nM OdDHL; E. coli DH5α (pJN105L pSC11); normalized to OdDHL
LasR [4] = molecular target: T2, LasR; details: 5 μM ligand; E. coli DH5α (pJN105L pSC11); normalized to OdDHL

Row | SMILES | A. tumefaciens-TraR Inhibition [%] (TraR [1]; 10 μM synthetic ligand against 100 nM OOHL, A. tumefaciens WCF47 (pCF372), normalized to OOHL) | A. tumefaciens-TraR Activation [%] (TraR [2]) | E. coli-LasR Inhibition [%] (LasR [3]) | pIC50 (TraR [1]; read-out: TraR IC50, determined against 100 nM OOHL) | E. coli-LasR Activation [%] (LasR [4])
1 | O=C(CCc1ccc(Br)cc1)N[C@H]1CCOC1=O | 93 | 2 |  |  | 
2 | O=C(Cc1ccc(I)cc1)N[C@H]1CCOC1=O [B13] |  |  | 36% and 21% | 5.90 | 0
